Share of PSTVd loop 6 variants by leaf site

The pool varies loop 6 of the PSTVd intermediate strain in the pattern UNNNCGNNNG; wild type is UGACCGCGAG (upper and lower strand joined, each 5' to 3', the first 5 letters being the upper strand, closing pairs included).

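Three N. benthamiana plants were inoculated with the whole mutant pool. Samples came from the inoculated region at 5 days, the leaf margin at 10 and upper systemic leaves at 12.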

Values are reads per thousand in the sample; higher means more abundant, 0 means not found.
Each site shows the three plants.
"Pool" is the share in the plasmid pool used as inoculum, on the same scale.
The inoculated region was read from the minus strand, the other sites from the plus strand.

For UGACAGUGAG (pool 0.0131) the result was inoculated region 0.504 / 0.521 / 0.443; leaf margin 0.0276 / 0.0252 / 0.116; systemic leaves 0 / 0.0606 / 0.0205. UGAGCGUGUG (pool 0.170) gave inoculated region 0.174 / 0.0719 / 0.0184; leaf margin 0 / 0 / 0; systemic leaves 0 / 0 / 0. For UUAUCGAAAG (pool 0.222) the result was inoculated region 0.0869 / 0.0719 / 0.0369; leaf margin 0 / 0 / 0.0464; systemic leaves 0 / 0 / 0. With UCGACGCCUG (pool 0.209) the assay gave inoculated region 0.0869 / 0.180 / 0.0369; leaf margin 0.0276 / 0 / 0.0232; systemic leaves 0 / 0 / 0. For UACCCGUGCG (pool 0.248) the result was inoculated region 0.0869 / 0.0359 / 0.0369; leaf margin 0 / 0 / 0.0232; systemic leaves 0 / 0 / 0. For UUCACGAAUG (pool 0.431) the result was inoculated region 0.104 / 0.0898 / 0.129; leaf margin 0.0276 / 0 / 0; systemic leaves 0 / 0 / 0.

With UCUACGCUUG (pool 0.196) the assay gave inoculated region 0.122 / 0.0898 / 0.0553; leaf margin 0.0552 / 0 / 0.0232; systemic leaves 0 / 0 / 0. UACCCGGGAU (pool 0.0131) gave inoculated region 0 / 0 / 0; leaf margin 0 / 0 / 0; systemic leaves 0 / 0 / 0. For UAAGCGUACG (pool 0.458) the result was inoculated region 0.0348 / 0.108 / 0.129; leaf margin 0 / 0 / 0.0232; systemic leaves 0 / 0 / 0. With CGACCGACCG (pool 0.0131) the assay gave inoculated region 0 / 0.0359 / 0.0553; leaf margin 0.0276 / 0 / 0; systemic leaves 0 / 0 / 0. With UAGGCGGUAG (pool 0.196) the assay gave inoculated region 0.0869 / 0.0898 / 0.0184; leaf margin 0 / 0 / 0; systemic leaves 0 / 0 / 0. UUUUCUAUAG (pool 0.0131) gave inoculated region 0 / 0 / 0; leaf margin 0 / 0 / 0; systemic leaves 0 / 0 / 0.

For UAAACGUUUG (pool 0.275) the result was inoculated region 0.0869 / 0.0898 / 0.0922; leaf margin 0 / 0 / 0; systemic leaves 0 / 0 / 0. With UGAGCGGUAG (pool 0.314) the assay gave inoculated region 0.799 / 0.844 / 0.498; leaf margin 0.0552 / 0.126 / 0.0696; systemic leaves 0.0180 / 0.222 / 0.0615. For UAUUCGCGUG (pool 0.170) the result was inoculated region 0.139 / 0.108 / 0.0553; leaf margin 0 / 0 / 0.0232; systemic leaves 0 / 0 / 0. UGUACGAGAG (pool 0.209) gave inoculated region 0.643 / 0.898 / 0.756; leaf margin 0.0828 / 0.0504 / 0.0928; systemic leaves 0 / 0 / 0. UAUGCGGUCG (pool 0.235) read inoculated region 0.0869 / 0.144 / 0.0369; leaf margin 0 / 0 / 0.0232; systemic leaves 0 / 0 / 0. With UAUACGAAUG (pool 0.392) the assay gave inoculated region 0.191 / 0.162 / 0.0922; leaf margin 0 / 0 / 0.0232; systemic leaves 0 / 0 / 0.

UCUUCGGGCG (pool 0.314) gave inoculated region 0.122 / 0.0719 / 0.0184; leaf margin 0 / 0 / 0; systemic leaves 0 / 0 / 0. UACCCGUUGG (pool 0.340) read inoculated region 0.0869 / 0.0539 / 0.0738; leaf margin 0 / 0 / 0; systemic leaves 0 / 0 / 0. With UAUGCUACGG (pool 0.0131) the assay gave inoculated region 0 / 0 / 0; leaf margin 0 / 0 / 0; systemic leaves 0 / 0 / 0. With UCGGCGACAG (pool 0.235) the assay gave inoculated region 0.156 / 0.0180 / 0.129; leaf margin 0 / 0 / 0; systemic leaves 0 / 0 / 0. For UGGCCGCCGG (pool 0.248) the result was inoculated region 0.0695 / 0.108 / 0.184; leaf margin 0.0828 / 0 / 0.0464; systemic leaves 0 / 0 / 0. For UUCUCGGCCG (pool 0.248) the result was inoculated region 0.0695 / 0.0719 / 0.0553; leaf margin 0 / 0 / 0.0232; systemic leaves 0 / 0 / 0.

For UGCACGGUGG (pool 0.392) the result was inoculated region 0.191 / 0.0539 / 0.0369; leaf margin 0 / 0.0252 / 0; systemic leaves 0 / 0 / 0. UGUUCGUUAG (pool 0.445) read inoculated region 0.122 / 0.108 / 0.111; leaf margin 0.0276 / 0 / 0; systemic leaves 0 / 0 / 0. UCAGCGCAGG (pool 0.183) gave inoculated region 0.104 / 0.0898 / 0.111; leaf margin 0 / 0 / 0; systemic leaves 0 / 0 / 0. UCUCCGUGUG (pool 0.196) read inoculated region 0.0695 / 0.180 / 0.0738; leaf margin 0 / 0 / 0; systemic leaves 0 / 0 / 0. With UUCGCGCGUG (pool 0.235) the assay gave inoculated region 0.139 / 0.0539 / 0.0553; leaf margin 0.0276 / 0.101 / 0; systemic leaves 0 / 0 / 0. UUUUCGUCCG (pool 0.131) read inoculated region 0.156 / 0.0898 / 0.0922; leaf margin 0 / 0 / 0; systemic leaves 0 / 0 / 0.

For UUAGCGAUUG (pool 0.445) the result was inoculated region 0.104 / 0.162 / 0.0553; leaf margin 0 / 0 / 0; systemic leaves 0 / 0 / 0.

Samples held 36,220 to 57,551 reads, so the smallest values rest on one or two reads.
The authors trace changes outside the varied positions to PCR and sequencing errors or to mutation in the plant; presence does not show that a variant is infectious alone.
For reference, wild type rose from 20.7 per thousand in the pool to 195, 198, 203 (inoculated region), 629, 591, 734 (leaf margin) and 942, 870, 868 (systemic leaves).

Data from the supplement of Wu et al. 2024, doi:10.1371/journal.ppat.1012142.